Our source for the IC50 values is patent US9422333B2, “HCV protease inhibitors and uses thereof” (Celgene Avilomics Research, Inc., priority 2008, dated 2016).

Common to all, as to assay: HCV protease FRET assay for WT and mutated NS3/4A 1b enzymes (IC50_APP)
Holding throughout (type): biochemical
Holding throughout (settings): no pre-incubation, read-out: IC50_APP (apparent IC50)

The target of assay [1] is HCV NS3/4A 1b protease A156S mutant (Hepatitis C virus genotype 1b (isolate BK) (HCV), UniProt P26663, A1182S).
Assay [2] deals with HCV NS3/4A 1b protease A156T mutant (Hepatitis C virus genotype 1b, UniProt P26663, A1182T).
Assay [3] deals with HCV NS3/4A 1b protease D168A mutant (Hepatitis C virus genotype 1b (isolate BK) (HCV), UniProt P26663, D1194A).

Each structure is given as a SMILES string.

Turning to `C=CC(=O)NC[C@H](NC(=O)[C@@H](NC(=O)c1cnccn1)C1CCCCC1)C(=O)N1C[C@@H]2CCC[C@@H]2[C@H]1C(=O)N[C@@H](CCC)C(OC(=O)C(F)(F)F)C(=O)NC1CC1` (stereo in doubt) [Compound I-23, (S)-3-((1S,3aR,6aS)-2-((S)-3-acrylamido-2-((S)-2-cyclohexyl-2-(pyrazine-2-carboxamido)acetamido)propanoyl)octahydrocyclopenta[c]pyrrole-1-carboxamido)-1-(cyclopropylamino)-1-oxohexan-2-yl 2,2,2-trifluoroacetate], the IC50 (usually the concentration that inhibits the measured activity by half) in assay [1] was 412 nM; in assay [2] it was 985 nM; in assay [3], 508 nM.
